Experimental data reported in DBAASP.

Test system: Botrytis cinerea
Assay: ≥ marks a high value that may be exact or a test limit, other limits are often not marked, values filed in µg/mL are converted to µM

`CC[C@H](C)[C@H](NC(=O)CNC(=O)[C@H](C)NC(=O)[C@@H]1CCCN1C(=O)CNC(=O)[C@H](C)NC(=O)[C@H](CC(C)C)NC(=O)[C@H](Cc1ccc(O)cc1)NC(=O)[C@H](CCCCN)NC(=O)[C@H](CC(C)C)NC(=O)[C@@H](NC(=O)[C@H](CCCCN)NC(=O)[C@H](CCCCN)NC(=O)[C@H](Cc1ccccc1)NC(=O)[C@H](CC(C)C)NC(=O)[C@H](CCCCN)NC(=O)[C@@H](N)CCCCN)[C@@H](C)CC)C(=O)NCC(=O)N[C@@H](CCCCN)C(=O)N[C@@H](Cc1ccccc1)C(=O)N[C@@H](CC(C)C)C(=O)N[C@@H](Cc1cnc[nH]1)C(=O)N[C@@H](CO)C(=O)N[C@@H](C)C(=O)N[C@@H](CCCCN)C(=O)N[C@@H](CCCCN)C(=O)N[C@@H](CC(=O)O)C(=O)N[C@@H](CCC(=O)O)C(=O)N[C@@H](CC(C)C)C(=O)O` [KKLFKKILKYLAGPAGIGKFLHSAKKDEL] gave an MIC of no less than 61.2 µM.
